This test addresses HIV-1 protease (Human immunodeficiency virus type 1 group M subtype B, UniProt P04585). Put plainly: Inhibition constants against HIV-1 protease (method of Pennington et al.). Format: biochemical. As to conditions: read-out: Ki value.

Our source for the Ki values is US20080293727A1, “Novel sulfonamide inhibitors of aspartyl protease” (priority 1992, published 2008).

Molecules are shown by their SMILES.

What is called Ki is the equilibrium dissociation constant of an inhibitor or competing ligand from its target. With `COc1ccc(S(=O)(=O)N(Cc2ccco2)C[C@@H](O)[C@H](Cc2ccccc2)NC(=O)O[C@H]2CCOC2)cc1`, the Ki stood at 20 nM.
